Consider three compounds from publication PMC6820557, “Discovery of dual-activity small-molecule ligands of Pseudomonas aeruginosa LpxA and LpxD using SPR and X-ray crystallography” (Scientific Reports, 2019).

Chains of the proteins cited; added tags and fusions are not shown.
UniProt Q9HXY6, whole entry: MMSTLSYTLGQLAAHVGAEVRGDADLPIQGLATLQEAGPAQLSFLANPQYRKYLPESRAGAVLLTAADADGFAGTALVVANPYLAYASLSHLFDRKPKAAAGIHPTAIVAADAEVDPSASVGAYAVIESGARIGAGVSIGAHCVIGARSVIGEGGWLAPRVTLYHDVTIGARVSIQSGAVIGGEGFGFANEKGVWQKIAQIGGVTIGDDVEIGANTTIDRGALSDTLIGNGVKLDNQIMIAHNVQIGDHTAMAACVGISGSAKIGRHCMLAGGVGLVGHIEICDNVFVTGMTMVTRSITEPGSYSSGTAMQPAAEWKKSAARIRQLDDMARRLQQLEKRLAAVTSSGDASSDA
UniProt Q9X6P4, whole entry: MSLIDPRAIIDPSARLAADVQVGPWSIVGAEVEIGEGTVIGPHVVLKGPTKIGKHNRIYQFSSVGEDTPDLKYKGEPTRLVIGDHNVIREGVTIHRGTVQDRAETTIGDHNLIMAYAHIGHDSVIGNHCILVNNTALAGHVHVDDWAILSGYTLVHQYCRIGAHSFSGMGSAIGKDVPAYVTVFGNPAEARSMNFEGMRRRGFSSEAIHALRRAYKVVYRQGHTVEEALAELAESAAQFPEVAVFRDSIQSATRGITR

One experiment deals with P. aeruginosa LpxD (Pseudomonas aeruginosa, UniProt Q9HXY6). Nature of the experiment: Surface plasmon resonance binding to LpxD. As to conditions: read-out: Binding affinity (Kd) LpxD; SPR, Biacore 4000, 25 °C, PBS-P+ 1% DMSO, analyte 2.5-40 µM in triplicate. The protocol:
(§1) All experiments were conducted using a Biacore 4000 instrument with a CM5 chip at 25 °C. Avi-LpxA (31.6 kDa, 7.9 mg/mL stock concentration) and Avi-LpxD (39.8 kDa, 16.1 mg/mL stock concentration) were used as ligands to capture onto the NeutrAvidin immobilized CM5 chip surface. NeutrAvidin (60 kDa, 10 mg/mL) was diluted in 10 mM sodium acetate buffer at pH 4.5 (1:50 dilution, 200 µg/mL diluted concentration) and immobilized to a level of ~18000 RU, using standard amine coupling chemistry. This NeutrAvidin was immobilized onto all spots (Ss) of all flow cells (FCs). PBS-P (20 mM Phosphate buffer, pH 7.4, 2.7 mM KCl, 137 mM NaCl, 0.05% v/v surfactant P20) was used as the immobilization running buffer. Flow cell 3 off all flow cells were used as the reference spot. Avi-LpxA was diluted (1:75 dilution, 105.3 µg/mL diluted concentration) in PBS-P and injected onto S1 of all FCs (FCs 1–4). Avi-LpxD was diluted (1:75 dilution, 214.7 µg/mL diluted concentration) in PBS-P and injected onto S5 of all FCs. The ligands were captured in the presence of PBS-P. Based on the captured response values, theoretical Rmax values were calculated for the lowest and highest MW analytes. The Rmax values assume 1:1 interaction mechanism. Overnight kinetics were performed for all compounds in the presence of PBS-P+ 1% DMSO buffer. Contact time and dissociation time used in screening experiments were 60 seconds and 300 seconds respectively. Injected analyte concentrations were 0 µM, 2.5 µM, 5 µM, 10 µM, 20 µM, and 40 µM. The compounds were injected in triplicate for each concentration. Data from overnight kinetics were evaluated by steady state affinity or 1:1 kinetics model fitting. The SPR response curves and fitted curves can be found in Supplementary Fig. S1.
(In general: Surface plasmon resonance follows binding to a sensor surface in real time, without labels.)

Experiment [1] relates to laboratory P. aeruginosa strains. The experiment is described as follows: Preliminary bacterial growth inhibition (MIC) study. As to conditions: at 256 µg/mL; preliminary studies, data not shown.
Another experiment concerns the target P. aeruginosa LpxA (Pseudomonas aeruginosa, UniProt Q9X6P4). Nature of the experiment: Surface plasmon resonance binding to LpxA. As to conditions: read-out: Binding affinity (Kd) LpxA; SPR, Biacore 4000, 25 °C, PBS-P+ 1% DMSO, analyte 2.5-40 µM in triplicate. The protocol: as §1

Structures are written as SMILES.

In the case of `NC(Cc1c[nH]c2ccc([N+](=O)[O-])cc12)C(=O)O` (stereo not shown), the equilibrium dissociation constant (Kd) (commonly the free concentration of one partner at which half of the binding sites on the other are occupied at equilibrium, for simple one-to-one binding) on P. aeruginosa LpxD was greater than 40 µM; at P. aeruginosa LpxA, 2.1 µM. In addition, the “Inhibition of bacterial growth” value in experiment [1] is given as “did not show significant inhibition of bacterial growth”.

With `O=C(COc1ccccc1)NNC1=NS(=O)(=O)c2ccccc21`, the Kd at P. aeruginosa LpxD was greater than 40 µM; at P. aeruginosa LpxA, 16.7 µM.

As to `C/C(=C\C(=O)Nc1nnn[nH]1)c1cccc(C(F)(F)F)c1`, the results for the Kd on P. aeruginosa LpxD and at P. aeruginosa LpxA were greater than 40 µM and 13.6 µM, respectively.
